PubChem BioAssay AID1259414 – Drosophila RNAi Screening Center, 2018

- Aim: 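Host factors increasing or decreasing Wolbachia levels in cultured fly cells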 (primary screen)
- System: Drosophila JW18 cells infected with Wolbachia
- Reagents: long dsRNA against Drosophila genes, 0.25 µg dsRNA per well of a 384-well plate
- Timing: 5 days
- Conditions: cells persistently infected with Wolbachia before knock-down; no added drug
- Measured: 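Imaged fluorescence in situ signal for Wolbachia 23S rRNA per DAPI-counted host cell, given as a robust z-score within each plate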
- Direction: Wolbachia per cell robust z: higher = more Wolbachia per host cell than the plate typical
- Hit rule: 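Hit when robust z is 1.5 or more, or -1.5 or less, in at least two of three replicates; excludes dsRNAs with several or no targets, genes not expressed in JW18 and well A1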
The screen tested about 24,000 reagents; below is a random part of those with a known target gene and a result. Over the whole deposit, about 1,210 (5%) are marked active. 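Inactive calls also include excluded dsRNAs with several or no targets, genes unexpressed in JW18, and well A1, regardless of score.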 A plus sign joins genes that one reagent is predicted to hit.

predicted target | DRSC id | Wolbachia per cell robust z, rep 1 | Wolbachia per cell robust z, rep 2 | Wolbachia per cell robust z, rep 3 | Call
CG42304 + Snup | DRSC08277 | -0.361 | -2.01 | -0.625 | inactive
CG42304 + Snup | DRSC23772 | -1.56 | 0.383 | -0.261 | inactive
CG42304 + Snup | DRSC39092 | -0.281 | -1.26 | -1.26 | inactive
CG14797 | DRSC17955 | 0.399 | -4.87 | -0.757 | inactive
TP53INP | DRSC08178 | 0.954 | 0.906 | -2.91 | inactive
TP53INP | DRSC22552 | 0.566 | 0.802 | 1.08 | inactive
TP53INP | DRSC25638 | 0.546 | -1.21 | -13.4 | inactive
sloth2 + sloth1 | DRSC17923 | -0.218 | -0.685 | -4.36 | inactive
Datp | DRSC01102 | -7.62 | -1.79 | -1.31 | inactive
Datp | DRSC41453 | 1.08 | -1.58 | -0.255 | inactive
CG5928 | DRSC18391 | -3.45 | -1.55 | -0.71 | inactive
CG5928 | DRSC25853 | -0.55 | 0.913 | -0.0358 | inactive
sni | DRSC17770 | 0.564 | 0.0083 | 0.677 | inactive
sni | DRSC25897 | 0.621 | 0.627 | 0.0391 | inactive
sni | DRSC38994 | 0.461 | -1.25 | -1.12 | inactive
CG9757 | DRSC16557 | -1.41 | -6.8 | -1.17 | inactive
CG9757 | DRSC21707 | 0.514 | -0.103 | 0.936 | inactive
CG9757 | DRSC25621 | -0.2 | 3.74 | 0.591 | inactive
Zip42C.1 | DRSC05003 | -3.7 | -0.316 | 0.0428 | inactive
Mst27D | DRSC00967 | -1.9 | -2.16 | -1.86 | active
Prip | DRSC07044 | 0.152 | -0.416 | -1.43 | inactive
Prip | DRSC26459 | -1.6 | 0.176 | 0.294 | inactive
CG5808 | DRSC14124 | -0.25 | -0.728 | 0.705 | inactive
r + CG13012 | DRSC19531 | 1.04 | -2.58 | 0.459 | inactive
CG17528 | DRSC07761 | -0.773 | 0.00243 | 0.73 | inactive
Spn53F | DRSC06022 | -0.534 | -1.4 | -0.898 | inactive
CG14346 | DRSC00376 | 0.344 | -0.769 | -1.36 | inactive
CG14346 | DRSC27555 | 0.673 | 1.73 | 0.29 | inactive
CG13202 | DRSC06326 | -0.166 | 0.734 | -1.13 | inactive
alphaTry | DRSC07577 | 0.158 | 0.126 | 0.482 | inactive
CG32152 | DRSC22906 | -0.68 | -0.659 | -1.36 | inactive
CG14853 | DRSC14977 | -3.45 | 1.01 | -1.53 | inactive
CG14853 | DRSC21528 | 0.353 | 0.463 | 0.182 | inactive
CG42514 | DRSC10428 | 0.436 | -0.813 | -0.598 | inactive
goe | DRSC19345 | -1.83 | -1.91 | -0.153 | active
goe | DRSC29879 | 0.829 | 1.16 | 1.12 | inactive
Efr | DRSC18322 | -1.52 | -1.18 | -0.00196 | inactive
Efr | DRSC26945 | 1.26 | -0.409 | -0.444 | inactive
Prim1 | DRSC11137 | 0.612 | 1.08 | 0.471 | inactive
Brr2 | DRSC10559 | 0.992 | 1.35 | 0.122 | inactive
CG17375 | DRSC02614 | -0.849 | -0.904 | -0.721 | inactive
CG17375 | DRSC29517 | 0.0891 | -5.64 | 1.3 | inactive
Ir100a | DRSC14329 | 1.57 | 1.87 | 2.08 | active
Ir100a | DRSC25881 | -0.363 | 0.782 | 1.11 | inactive
MED16 | DRSC04506 | 0.0413 | -0.0558 | 0.487 | inactive
MED16 | DRSC26633 | 0.0375 | 0.455 | 1.7 | inactive
CG13589 | DRSC04225 | -0.337 | -4.99 | -2.07 | inactive
CG13589 | DRSC26885 | 0.395 | 1.35 | -0.181 | inactive
nAChRalpha3 | DRSC18800 | 0.107 | 0.147 | -0.924 | inactive
nAChRalpha3 | DRSC25751 | -1.92 | -0.216 | 0.227 | inactive
CG9471 | DRSC16499 | -5.36 | -0.309 | -4.68 | active
CG9471 | DRSC26334 | 2.22 | 1.21 | 1.11 | inactive
SNRPG | DRSC20207 | -4.12 | 0.984 | 0.733 | inactive
cup | DRSC03516 | -0.538 | 1.78 | 1.62 | inactive
cup | DRSC24610 | 0.487 | 0.509 | -0.4 | inactive
asun | DRSC16733 | -0.0734 | -0.163 | 0.186 | inactive
pAbp | DRSC07659 | 3.13 | -2.67 | 5.04 | active
CG17754 | DRSC18131 | 0.0189 | -0.289 | 1.56 | inactive
lectin-29Ca | DRSC02635 | 0.48 | 0.209 | 0.937 | inactive
RnrS | DRSC07533 | 2.42 | 2.99 | 5.05 | active
RnrS | DRSC23541 | 4.33 | 3.72 | 11.9 | active
Rint1 + CR41379 | DRSC38730 | -0.415 | -0.361 | 0.649 | inactive
CG17977 | DRSC06700 | -1.58 | 0.638 | -5.59 | active
B4 | DRSC01868 | -5.51 | -1.46 | -1.61 | active
B4 | DRSC03175 | 1.13 | -4.19 | -1.81 | active
CG17163 | DRSC20901 | 0.508 | -0.472 | 0.564 | inactive
CG42598 + CG41284 | DRSC37841 | -0.96 | -1.25 | -1.24 | inactive
Nep6 | DRSC19877 | -0.0825 | -0.0333 | 2.36 | inactive
CG9624 | DRSC16523 | -1 | -0.721 | -0.459 | inactive
CG34408 | DRSC17733 | 0.125 | 0.157 | 0.691 | inactive
CG34408 | DRSC23056 | -2.36 | -0.492 | -0.0671 | inactive
CG34408 | DRSC27286 | -0.0675 | 0.977 | 0.836 | inactive
CG34408 | DRSC28674 | 0.178 | 0.537 | -0.722 | inactive
Alms1b + Alms1a | DRSC18559 | -2.39 | 0.0462 | -3.93 | inactive
ETHR | DRSC15915 | 1.05 | 0.003 | -0.223 | inactive
ETHR | DRSC29606 | -1.64 | -3.97 | -1.08 | inactive
ctp | DRSC18758 | -0.0852 | 1.22 | -8.6 | inactive
ctp | DRSC25165 | 0.88 | -0.159 | 0.649 | inactive
Marf | DRSC18329 | -1.01 | -2.64 | -0.0502 | inactive
Marf | DRSC28101 | -1.04 | 0.28 | 0.65 | inactive
CG3358 | DRSC04992 | 0.152 | 0.414 | -0.167 | inactive
Cdk12 | DRSC11836 | 0.305 | 0.294 | -0.375 | inactive
Cdk12 | DRSC23323 | 0.758 | 0.728 | -0.161 | inactive
Cdk12 | DRSC29623 | 0.929 | 0.34 | 0.14 | inactive
wkd | DRSC15777 | 1.08 | -1.35 | 0.115 | inactive
abs | DRSC12372 | 0.588 | -0.0177 | -0.23 | inactive
Act57B | DRSC04042 | 4.4 | 2.14 | 3.17 | inactive

Targets listed so far whose target name begins with M or m (5):
predicted target | DRSC id | Wolbachia per cell robust z, rep 1 | Wolbachia per cell robust z, rep 2 | Wolbachia per cell robust z, rep 3 | Call
Mst27D | DRSC00967 | -1.9 | -2.16 | -1.86 | active
MED16 | DRSC04506 | 0.0413 | -0.0558 | 0.487 | inactive
MED16 | DRSC26633 | 0.0375 | 0.455 | 1.7 | inactive
Marf | DRSC18329 | -1.01 | -2.64 | -0.0502 | inactive
Marf | DRSC28101 | -1.04 | 0.28 | 0.65 | inactive
